Like-named read-outs stand apart in the source and are kept apart here.
Columns and labels:
rSmTAChE [1] = target: T1, rSmTAChE (Schistosoma mansoni, UniProt A0A3Q0KMM5); conditions: Table S1, Repurposing Hub;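 as to Inhibition (%) (Average): mostly 20 µM final but a few compounds at 5 or 10 µM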;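 as to Inhibition (%) Replicate A: mostly 20 µM final but a few compounds at 5 or 10 µM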;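 as to Inhibition (%) Replicate B: mostly 20 µM final but a few compounds at 5 or 10 µM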
rSmTAChE [2] = target: T1, rSmTAChE; conditions: dose response analysis of Drug Repurposing Hub hits against rSmTAChE; for IC50: read-out: qAC50 (IC50), rSmTAChE

Amino acid sequences for entries named in this document (tags omitted). Residues count along the entry.
UniProt A0A3Q0KMM5, 27-661 limits assumed: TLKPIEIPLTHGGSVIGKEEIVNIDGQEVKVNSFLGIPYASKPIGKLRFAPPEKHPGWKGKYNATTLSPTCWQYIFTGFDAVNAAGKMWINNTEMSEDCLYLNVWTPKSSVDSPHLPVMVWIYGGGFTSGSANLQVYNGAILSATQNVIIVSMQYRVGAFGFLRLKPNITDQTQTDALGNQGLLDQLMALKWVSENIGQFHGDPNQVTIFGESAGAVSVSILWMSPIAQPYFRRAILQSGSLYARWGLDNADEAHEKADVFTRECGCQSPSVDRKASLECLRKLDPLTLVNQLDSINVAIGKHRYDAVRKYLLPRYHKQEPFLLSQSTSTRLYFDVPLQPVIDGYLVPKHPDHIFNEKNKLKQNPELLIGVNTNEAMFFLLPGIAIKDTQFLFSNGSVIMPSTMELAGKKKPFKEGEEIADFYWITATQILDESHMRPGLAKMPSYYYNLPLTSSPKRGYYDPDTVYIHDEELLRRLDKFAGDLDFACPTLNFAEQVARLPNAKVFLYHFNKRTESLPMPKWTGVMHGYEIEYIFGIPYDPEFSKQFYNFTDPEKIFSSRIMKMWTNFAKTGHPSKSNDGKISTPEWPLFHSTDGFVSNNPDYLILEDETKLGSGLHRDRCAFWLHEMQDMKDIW

| SMILES | Inhibition (%) (Average) (rSmTAChE [1]; Concentration Av 10 µM) | Inhibition (%) Replicate A (rSmTAChE [1]; Concentration Av 10 µM) | Inhibition (%) Replicate B (rSmTAChE [1]; Concentration Av 10 µM) | Data Mode (curve class), rSmTAChE (rSmTAChE [2]) | IC50 (rSmTAChE [2]) | Inhibition (%) (Average) (rSmTAChE [1]; Concentration Av 5 µM) | Inhibition (%) Replicate A (rSmTAChE [1]; Concentration Av 5 µM) | Inhibition (%) Replicate B (rSmTAChE [1]; Concentration Av 5 µM) |
| --- | --- | --- | --- | --- | --- | --- | --- | --- |
| COc1cccc(-n2nc(C(=O)O)cc2-c2ccc(C3CCCCC3)c(Cl)c2)c1 | 73.41% | 73.41% | 73.41% | decreasing (weakly active) | > 6.8 µM |  |  |  |
| Cc1c(OCc2cccc(-c3ccc(C(=O)O)cc3)c2)cc2c(c1C)C(=O)C(C1CCCC1)C2 (centres unmarked) |  |  |  | decreasing |  | 73.56% | 73.27% | 73.84% |
| CCCn1c(=O)[nH]c2nc(-c3ccc(S(=O)(=O)N4CCN(c5ccc(Cl)cc5)CC4)cc3)[nH]c2c1=O | 63.69% | 63.02% | 64.35% | decreasing (weakly active) | > 6.8 µM |  |  |  |
